From PubChem BioAssay AID540257 (Southern Research Specialized Biocontainment Screening …, 2011) come the findings set out here.

SMILES strings stand for the structures. Only a part is listed here, and it is no random draw. Measured potencies and affinities stand elsewhere. Activity calls are given as the source filed them. How the calls were made is not given here.

This experiment in a line: antiviral activity against H1N1 influenza, dose response, cell-based, strain KY136 (AID 540257). As to conditions: H1N1 KY136 influenza antiviral cell assay, % inhibition; at 40 µM (top of the series).
The term inhibition denotes the relative decrease from the control value, in per cent. Take `COc1cc(C(=O)NCC2(N3CCOCC3)CCCCC2)cc(Cl)c1OC(C)C`: the inhibition is inactive: -13.8%.
Turning to `CCC(C)N(CC(C)C)C(=S)SC(NC(C)=O)C(Cl)(Cl)Cl` (configuration not stated), the inhibition is inactive: -2.48%.
